A short description of this data set: Selectivity index, ratio of CC50 for cytotoxicity against human MT4 cells assessed as reduction in cell viability to EC50 for antiviral activity against wild type HIV-1 IIIB infected in human MT4 cells assessed as protection against virus-induced cytopathic effect. The format is toxicity, cell-based. The settings on record: read-out: Ratio CC50/EC50.

For `Cc1cc(C#N)cc(C)c1Oc1nc(Nc2ccc(C#N)cc2)nc(N)c1Br` [ETRAVIRINE], the selectivity ratio was > 1500.

The values above are taken from ChEMBL document CHEMBL6078645, “Expanding the Solvent/Protein Region Occupation of the Non-Nucleoside Reverse Transcriptase Inhibitor Binding Pocket for Improved Broad-Spectrum Anti-HIV-1 Efficacy: from Rigid Phenyl-Diarylpyrimidines to Flexible Hydrophilic Piperidine-Diarylpyrimidines” (J Med Chem, 2024).
